In US20050171216A1, “Germicidal compositions containing phthalaldehyde mixtures and methods of using such compositions for disinfection or sterilization” (priority 2004, published 2005):

Experiment: staining test on pigskin
Parameters: species or system pig; key to Staining: +: tends to stain certain surfaces; −: do not stain
Details: for Staining Results: about 10 μL on pigskin, about 24 hours at room temperature; for Staining: summary Table 14

Row | SMILES | Staining Results (0.20% solution) | Staining | Staining Results (0.14% solution)
1 | O=Cc1cccc(C=O)c1 [IPA, isophthalaldehyde] | Non-Staining | − | 
2 | O=Cc1ccccc1C=O [OPA, phthalaldehyde] |  | + | Dark Staining
3 | O=Cc1ccc(C=O)cc1 [TPA, terephthalaldehyde] |  | − | 
